{"source": "patent US5432264A", "about": "(priority 1987, dated 1995)", "tested_on": "herpes simplex virus type 1", "type": "cell-based"}
{"molecule": "3-des-OH-cystatin C: Recombinant 120 amino acid human cystatin C with non-hydroxylated Pro at position 3, expressed in E. coli (protein, UniProt P01034 27-146, looked up, non-hydroxylated Pro3, Recombinant 120 amino acid human cystatin C with non-hydroxylated Pro at position 3, expressed in E. coli) Cystatin-C: SSPGKPPRLVGGPMDASVEEEGVRRALDFAVGEYNKASNDMYHSRALQVVRARKQIVAGVNYFLDVELGRTTCTKTQPNLDNCPFHDQPHLKRKAFCSFQIYAVPWQGTMTLSKSTCQDA", "values": [{"measurement": "concentration required for inhibition of viral replication to background levels", "result": "about 0.13 mM"}]}
